Biological target: H3 stem with I32HA2 (influenza A virus H3N2 A/Finland/486/2004)
Assay: BLI

B1: AG2-G02 Fab (Fab, V domains shown)
VH: VQLVQSGAEMKKPGASVKVSCKASGYTFSAYYIHWVRQAPGQGLEWMGRINTDSGGTNFAQQFEGRVTMTRDTSISTAYMELSSLRSDDTAVYYCARGYDFWLGSYRAGGWFDPWGQGTLVTVSS
VL: [no letters for about 100 residues]GFTFGPGTKVDIK
  Kd: 0.21 nM
